Reference: publication PMC7525159
The exact form of at least one protein or probe is not confirmed.

Sequences of proteins named here, by UniProt entry; tags and fusion partners are left off. A change or cut given only in a name is not applied to a line headed by its entry.
UniProt P9WGL9: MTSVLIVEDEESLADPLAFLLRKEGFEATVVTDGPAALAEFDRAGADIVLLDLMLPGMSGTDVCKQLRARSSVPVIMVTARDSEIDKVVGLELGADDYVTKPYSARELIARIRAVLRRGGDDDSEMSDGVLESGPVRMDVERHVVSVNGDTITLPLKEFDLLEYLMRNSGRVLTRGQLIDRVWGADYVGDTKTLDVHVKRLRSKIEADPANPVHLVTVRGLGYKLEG

Columns and labels:
[1] = target: RegX3-P (phosphorylated His-RegX3) (UniProt P9WGL9); test: EMSA; details: recombinant protein, protein details: His (pET28a), probe letters rebuilt from the primers and the genome
[2] = target: RegX3-P (phosphorylated His-RegX3) (UniProt P9WGL9); test: competition with a labelled probe; details: recombinant protein; protein details: His (pET28a); probe letters rebuilt from the primers and the genome

Row | Sequence | binding result [1] | binding result [2]
1 | CAGCTTTCTTTGCGCTAATTTAGGCGTACTCACAGCATGGGATGACCTGGGCAAATACCTCATCTATCCGCCCGGGATAGCATGCGGCGCAGGCGGCGAATGCGGCGCAGATGAACGCAGAGTTAATTCTCACGCAACGGTCCGATATTG (double strand) [whiB3 promoter -307 to -157 (WT)] | binds | –
2 | CAGCTTTCTTTGCGCTAATTTAGGCGTACTCACAGCATGGGATGACCTGGGCAAATACCTCATCTATCCGCCCGGGATAGCATGCGGCGCAGGCGGCGAATGCGGCGCAGATGAACGCAGAGTTAATTCTCACGCAACGGTCCGATATTG (double strand) [whiB3 promoter -307 to -157, unlabeled competitor] | – | binds
